The source of these data is paper PMC8262909, “LcrQ Coordinates with the YopD-LcrH Complex To Repress lcrF Expression and Control Type III Secretion by Yersinia pseudotuberculosis” (2021).

The experiment has as its target LcrH (UniProt P23995). The experiment in a line: bacterial two-hybrid assay. The settings on record: parent: est. 1500; read off a plot.
As to LcrQ F46A; L68A, the response was 850 M.U.
With LcrQ F46A; L102A the figure was 200 M.U; with LcrQ F46A, 700 M.U.
The same measure for LcrQ L68A; L102A: 800 M.U; for LcrQ L68A: 1500 M.U; for LcrQ L102A: 700 M.U.
